The values that follow come from patent US20160024159A1, “Potent and selective inhibitors of Nav1.7” (published 2016).

Holding throughout (experiment): cell-based or functional assay
Assay [1] concerns the target human voltage-gated sodium channel Nav1.4 (human) (UniProt P35499).
Assay [2] addresses human voltage-gated sodium channel Nav1.7 (human) (UniProt Q15858).
The target in assay [3] is human voltage-gated sodium channel Nav1.3 (human) (UniProt Q9NY46).
Assay [4] concerns the target human voltage-gated sodium channel Nav1.5 (human) (UniProt Q14524).

“And” between values parts separate entries of the source, which are not always exact repeats. Identical values can stand only once. Some results are limits rather than exact numbers.

As for “[Glu27]JzTx-V(1-29) (peptide; modification not given)”, the PX hNav1.4 Tonic IC50 in assay [1] worked out at 324 nM. For the same substance, the PX hNav1.7 Tonic IC50 in assay [2] was 12.3 nM.

In turn, “[Glu20;Tyr28;Cit29]JzTx-V(1-29) (peptide; modification not given)” came in with an IC50, IonWorks Quattro electrophysiology in assay [2] of 1.2 µM.

With “[Glu20;Trp29]JzTx-V(1-29) (peptide; modification not given)”, the IC50, IonWorks Quattro electrophysiology in assay [2] turned out to be 0.017 µM.

In the case of “[Glu20;Tyr28;Leu29]JzTx-V(1-29) (peptide; modification not given)”, the IC50, IonWorks Quattro electrophysiology in assay [3] was 3 µM and > 5 µM; in assay [1], 4.5 µM and > 5 µM; in assay [4], over 5 µM; in assay [2], 0.084 µM and 0.23 µM.

For the substance “[Lys1]JzTx-V(1-29) (peptide; modification not given)”, the IC50 (IonWorks Quattro) in assay [3] was 50 nM; in assay [1], 60 nM; in assay [4] it was 2300 nM; in assay [2], 5 nM.

With “[Glu20;1-Nal24;Tyr28]JzTx-V(1-29) (peptide; modification not given)”, the IC50, IonWorks Quattro electrophysiology in assay [3] was over 7 µM; in assay [1], over 7 µM; in assay [4], over 7 µM; in assay [2], 0.3 µM.

For “[Nle6;Atz(NPEG10)29]JzTx-V(1-29) (peptide; modification not given)”, the IC50, IonWorks Quattro electrophysiology in assay [3] is 3.9 µM; in assay [1], 0.75 µM; in assay [4] it was over 7 µM; in assay [2], 0.4 µM. Further, in assay [1], the Nav1.4/Nav1.7 (ratio of IC50) came to 2 fold.

In turn, “[1-Nal7]JzTx-V(1-29) (peptide; modification not given)” registered an IC50 (IonWorks Quattro) in assay [3] of 100 nM. In assay [1], the IC50 (IonWorks Quattro) worked out at 120 nM and the PX hNav1.4 Tonic IC50 came to 0.9 nM. Besides, in assay [4], the IC50 (IonWorks Quattro) was determined as 3600 nM and the PX hNav1.5 Tonic IC50 worked out at 1420 nM. Moreover, in assay [2], the IC50 (IonWorks Quattro) was 13 nM and the PX hNav1.7 Tonic IC50 came out at 0.4 nM.

In assay [2], “[Glu26]JzTx-V(1-29) (peptide; modification not given)” showed a PX hNav1.7 Tonic IC50 of over 1000 nM.

For “[Glu20;Lys24;Tyr28]JzTx-V(1-29) (peptide; modification not given)”, the IC50, IonWorks Quattro electrophysiology in assay [3] was over 5 µM; in assay [1], over 5 µM; in assay [4], over 5 µM; in assay [2], 2.7 µM.

Regarding “[Lys11]JzTx-V(1-29) (peptide; modification not given)”, the IC50 (IonWorks Quattro) turned out to be 50 nM in assay [3], 110 nM in assay [1], 1100 nM in assay [4] and 8 nM in assay [2].

As for “[Glu12]JzTx-V(1-29) (peptide; modification not given)”, the PX hNav1.4 Tonic IC50 in assay [1] was determined as 43.2 nM. For the same substance, the PX hNav1.7 Tonic IC50 in assay [2] came to 0.904 nM.

The substance “[Glu22]JzTx-V(1-29) (peptide; modification not given)” registered a PX hNav1.4 Tonic IC50 in assay [1] of 4340 nM. The PX hNav1.7 Tonic IC50 in assay [2] came out at 930 nM.

In the case of “[Ala11]JzTx-V(1-29) (peptide; modification not given)”, the IC50 (IonWorks Quattro) in assay [3] stood at 140 nM; in assay [1] it was 160 nM; in assay [4] it was 3600 nM; in assay [2] it was 12 nM.

As for “[Atz(NPEG10)1;Nle6]JzTx-V(1-29) (peptide; modification not given)”, the IC50, IonWorks Quattro electrophysiology was 0.16 µM and 0.13 µM in assay [3]; 0.39 µM and 0.45 µM in assay [1]; over 7 µM in assay [4]; 0.1 µM and 0.14 µM in assay [2]. In assay [1], the Nav1.4/Nav1.7 (ratio of IC50) was 4 fold and 3 fold.

On to “[Ala17]JzTx-V(1-29) (peptide; modification not given)”, for which the IC50 (IonWorks Quattro) was 80 nM in assay [3], 60 nM in assay [1], 2000 nM in assay [4] and 8 nM in assay [2].

Take “[Ala6]JzTx-V(1-29) (peptide; modification not given)”: the IC50 (IonWorks Quattro) was 160 nM in assay [3], 280 nM in assay [1], over 5000 nM in assay [4] and 94 nM in assay [2].

Turning to “[Lys8]JzTx-V(1-29) (peptide; modification not given)”, the IC50 (IonWorks Quattro) came to 100 nM in assay [3], 100 nM in assay [1], 3700 nM in assay [4] and 31 nM in assay [2].

Take “[Lys14]JzTx-V(1-29) (peptide; modification not given)”: the IC50 (IonWorks Quattro) amounted to 30 nM in assay [3], 70 nM in assay [1], 1500 nM in assay [4] and 7 nM in assay [2].

Turning to “[Atz(NPEG10)5;Nle6]JzTx-V(1-29) (peptide; modification not given)”, the IC50, IonWorks Quattro electrophysiology in assay [3], in assay [1], in assay [4] and in assay [2] was over 7 µM each time.

As to “[Nle6;Atz(NPEG10)11]JzTx-V(1-29) (peptide; modification not given)”, the IC50, IonWorks Quattro electrophysiology is 0.2 µM and 0.4 µM in assay [3]; 0.4 µM and 0.5 µM in assay [1]; over 5 µM in assay [4]; 0.096 µM and 0.12 µM in assay [2]. Moreover, the Nav1.4/Nav1.7 (ratio of IC50) in assay [1] turned out to be 4 fold.

Regarding “[Lys20]JzTx-V(1-29) (peptide; modification not given)”, the IC50 (IonWorks Quattro) in assay [3] worked out at 60 nM; in assay [1], 260 nM; in assay [4], 3400 nM; in assay [2], 20 nM.

As for “[Glu20;Atz(NPEG10)28]JzTx-V(1-29) (peptide; modification not given)”, the Nav1.4/Nav1.7 (ratio of IC50) in assay [1] came to 3 fold. In addition, the IC50, IonWorks Quattro electrophysiology is 15.4 µM in assay [4] and 1.77 µM in assay [2].

In the case of “[Glu20;Tyr28;Ser29]JzTx-V(1-29) (peptide; modification not given)”, the IC50, IonWorks Quattro electrophysiology is over 5 µM in assay [3], over 5 µM in assay [1], over 5 µM in assay [4] and 0.34 µM in assay [2].

As for “[Glu3]JzTx-V(1-29) (peptide; modification not given)”, the PX hNav1.4 Tonic IC50 in assay [1] was found to be 453 nM. The substance also gave a PX hNav1.7 Tonic IC50 in assay [2] of 58.7 nM.

“[Arg3]JzTx-V(1-29) (peptide; modification not given)”: the IC50 (IonWorks Quattro) in assay [3] was found to be 60 nM; in assay [1], 140 nM; in assay [4], 3200 nM; in assay [2], 25 nM.

Regarding “[1-Nal23]JzTx-V(1-29) (peptide; modification not given)”, the IC50 (IonWorks Quattro) in assay [3] was 170 nM; in assay [1], 170 nM; in assay [4], 1500 nM; in assay [2], 50 nM.

With “[Glu20,29;Tyr28]JzTx-V(1-29) (peptide; modification not given)”, the IC50, IonWorks Quattro electrophysiology is over 5 µM in assay [3], over 5 µM in assay [1], over 5 µM in assay [4] and 4.7 µM in assay [2].

Consider “[Glu20;Asn24;Tyr28]JzTx-V(1-29) (peptide; modification not given)”, for which the IC50, IonWorks Quattro electrophysiology in assay [3], in assay [1], in assay [4] and in assay [2] was over 5 µM throughout.

Turning to “[Nva20]JzTx-V(1-29) (peptide; modification not given)”, the IC50 (IonWorks Quattro) was over 5000 nM in assay [3], 3100 nM in assay [1], 10400 nM in assay [4] and 170 nM in assay [2].

“Lys-[Nle6; Glu28]JzTx-V(1-29) (peptide; modification not given)” came in with a PX hNav1.4 Tonic IC50 in assay [1] of over 10000 nM. The PX hNav1.5 Tonic IC50 in assay [4] is over 10000 nM. In assay [2], this substance had a PX hNav1.7 Tonic IC50 of over 1000 nM.

Regarding “Glu-[ Nle6; Glu28]JzTx-V(1-29) (peptide; modification not given)”, the PX hNav1.4 Tonic IC50 in assay [1] was 99.2 nM. The substance further showed a PX hNav1.5 Tonic IC50 in assay [4] of 7600 nM. In assay [2], the PX hNav1.7 Tonic IC50 is 0.765 nM.

For [Nle6]JzTx-V(1-29) (peptide), the IC50, IonWorks Quattro electrophysiology in assay [3], in assay [1] and in assay [4] was over 5 µM each time.

Regarding “[Glu20;Tyr28;Lys29]JzTx-V(1-29) (peptide; modification not given)”, in assay [2], the IC50, IonWorks Quattro electrophysiology is 0.45 µM and 0.63 µM.

“[Glu5]JzTx-V(1-29) (peptide; modification not given)”: in assay [2], the PX hNav1.7 Tonic IC50 was over 1000 nM.

With “[Glu1;Tyr28]JzTx-V(1-29) (peptide; modification not given)”, the IC50, IonWorks Quattro electrophysiology in assay [1] is 0.7 µM; in assay [4], over 5 µM; in assay [2], 0.046 µM. In assay [1], the Nav1.4/Nav1.7 (ratio of IC50) was 16 fold.

In turn, “CyA-[Lys1; Nle6; Glu28]JzTx-V(1-29) (peptide; modification not given)” came in with a PX hNav1.4 Tonic IC50 in assay [1] of 682 nM. Also, the PX hNav1.7 Tonic IC50 in assay [2] was determined as 5.4 nM.

Consider “CyA-[Nle6; Glu28]JzTx-V(1-29) (peptide; modification not given)”, for which the PX hNav1.4 Tonic IC50 in assay [1] was found to be 720 nM. In assay [2], the PX hNav1.7 Tonic IC50 came to 7.02 nM.

For “[Nle6;Atz(NPEG10)7]JzTx-V(1-29) (peptide; modification not given)”, the IC50, IonWorks Quattro electrophysiology in assay [2] was 4.6 µM.

With “[Atz(NPEG10)1;Glu20]JzTx-V(1-29) (peptide; modification not given)”, the IC50, IonWorks Quattro electrophysiology in assay [3] is over 5 µM; in assay [1], over 5 µM; in assay [2] it was 0.18 µM.

“Pra-[Glu20;Trp29]JzTx-V(1-29) (peptide; modification not given)” showed an IC50, IonWorks Quattro electrophysiology in assay [2] of 0.018 µM.
